Pooled drug test results. Numbers come from NIAID ChemDB, via PubChem.

Common to all: growth or infection tests; species: HIV-1

ECn is the concentration giving n% inhibition of infection, replication or growth.

structure | read by | changes | read-out | strain or isolate | cells | value
O=C(c1ccccc1)N(CCc1ccccc1)C[C@H](O)CN(CC1CCCC1)S(=O)(=O)c1nccs1 | p24 |  | EC50 | IIIB | CEM | <1 µM
CN1N=C(N)c2cn([C@@H]3O[C@H](COP(=O)(O)O)[C@@H](O)[C@H]3O)c3ncnc1c23 | cytopathic effect / XTT |  | EC50 | RF | CEM + CEM-SS | 0.03 µM
COc1ccc(S(=O)(=O)N(CC(C)C)C[C@@H](O)CCN(CC2CCCC2)S(=O)(=O)c2nc3ccccc3o2)cc1 | p24 |  | EC90 | IIIB | CEM | 1 µM
CC(C)CN(C[C@@H](O)[C@H](Cc1ccccc1)NC(=O)[C@@H](NC(=O)OCc1ccccn1)C(C)C)S(=O)(=O)c1ccc(F)cc1 | p24 |  | EC50 | IIIB | CEM | <1 µM
CC(C)CN(C(=O)C(=O)C(=O)C(Cc1ccccc1)NC(=O)O[C@H]1CCOC1)S(=O)(=O)c1ccccc1 | p24 |  | EC90 | IIIB | CEM | 1 µM
CN(C)CCNc1nc(-c2cc3ccccc3s2)c2ccccc2n1 | RT activity |  | EC50 | LAV-1 | PBMC | 1.7 µM
CCOP(=O)(OCC)C(N[C@@H](Cc1ccccc1)[C@H](O)CN(CC(C)C)S(=O)(=O)c1ccc(OC)cc1)c1ccc2c(c1)OCO2 | MTT |  | EC50 | ROD | MT-4 | >13.2 µg/mL
CCCC(C(=O)O)c1c(-c2ccc(Cl)cc2)c2cc(Cl)ccc2n(C)c1=O | luciferase / reporter gene |  | EC50 |  | C8166 | <20 µM
Cc1cc(Cl)nc(N2C(=O)/C(=C\c3ccc(Cl)cc3)N=C2c2ccccc2)n1 | RT activity |  | EC50 |  |  | 52.09 µg/mL
COc1ccc(C[C@H](C[C@H](O)[C@H](Cc2ccccc2)NC(=O)OC(C)(C)C)C(=O)N[C@H](C(=O)NCCN(C)C)C(C)C)cc1 | RT activity |  | EC90 | MN | MT-2 | 0.3 µM
Cc1nc2ccc(Br)cc2c(-c2ccc(Cl)cc2)c1C(O[C@@H](C)C#N)C(=O)O | luciferase / reporter gene |  | EC50 |  | C8166 | <20 µM
CCc1c(Cc2cc(C)cc(C)c2)n(COCC#Cc2ccc(NC(=O)C(F)(F)F)cc2)c(=O)[nH]c1=O | MTT | WT | EC50 | IIIB | MT-4 | 0.007 µM
CN1CCN(c2nc(-c3cccs3)cc(-c3cccs3)n2)CC1 | RT activity |  | EC50 | LAV-1 | PBMC | 21 µM
CC(C)CN(CC(O)CCN(CC1CCCC1)S(=O)(=O)c1ccc(O)cc1)S(=O)(=O)c1ccccc1 | p24 |  | EC50 | IIIB | CEM | <1 µM
CN1CC(=O)C(=O)C=C1Cn1cnc([N+](=O)[O-])c1Nc1cccc(Cl)c1 | MTT |  | EC90 | IIIB | MT-4 | >5.5 µM
CCOCn1c2c(c(=O)[nH]c1=O)Cc1ccccc1C2 |  |  | EC50 | IIIB | C8166 | >5 µM
C=CCOC(=O)N[C@@H](Cc1ccccc1)[C@H](O)CN(CC1CCCC1)S(=O)(=O)c1ccc2c(c1)CCN2C(C)=O | p24 |  | EC50 | IIIB | CEM | <1 µM
COc1ccc2c(c1OC)c(=O)c1ccccc1n2C | p24 / ELISA |  | EC50 | IIIB | OM-10.1 | >28 µg/mL
COc1cccc(C[C@H](C[C@H](O)[C@H](Cc2ccccc2)NC(=O)OC(C)(C)C)C(=O)N[C@H](C(=O)N[C@@H](Cc2ccccc2)C(=O)N2CCOCC2)C(C)C)c1 | RT activity |  | EC90 | MN | MT-2 | 0.03 µM
Cc1cn([C@H]2C[C@H](N=[N+]=[N-])[C@@H](CP(=O)(O)O)O2)c(N)nc1=O | cytopathic effect |  | EC50 | IIIB | MT-4 | >128 µg/mL
C=CCOC(C(=O)O)c1c(C)nc2ccc(Br)cc2c1-c1ccc(Cl)cc1 | luciferase / reporter gene |  | EC50 |  | C8166 | <20 µM
COCCNC(=O)[C@@H](NC(=O)[C@H](Cc1ccccc1OC)C[C@H](O)[C@H](Cc1ccccc1)NC(=O)OC(C)(C)C)C(C)C | RT activity |  | EC50 | MN | MT-2 | <1 µM
CCc1ccc(-c2c(C(OC(C)(CF)CF)C(=O)O)c(C)nc3ccc(Cl)cc23)cc1 | luciferase / reporter gene |  | EC50 |  | C8166 | <20 µM
CCOP(=O)(OCC)C(N[C@@H](Cc1ccccc1)[C@H](O)CN(CC(C)C)S(=O)(=O)c1ccc(OC)cc1)C(C)C | MTT |  | EC50 | IIIB | MT-4 | >11.52 µg/mL
COCCCNC(=O)[C@@H](NC(=O)[C@H](Cc1ccc(OC)c(OC)c1OC)C[C@H](O)[C@H](Cc1ccccc1)NC(=O)OC(C)(C)C)C(C)C | RT activity |  | EC50 | MN | MT-2 | <0.03 µM
CC(C)COC(=O)N(Cc1ccccc1)CC(O)C(Sc1ccccc1)N(Cc1ccccc1)C(=O)OCC(C)C | syncytia |  | EC50 | LAV | MT-4 | 0.1 µM
CCOP(=O)(OCC)C(N[C@@H](Cc1ccccc1)[C@@H](O)CN(CC(C)C)S(=O)(=O)c1ccc(OC)cc1)c1ccccn1 | MTT |  | EC50 | ROD | MT-4 | >13.93 µg/mL
Cn1c2ccccc2c(=O)c2c(O)cccc21 | MTT |  | EC50 | IIIB | CEM | >5.6 µg/mL
COCCNC(=O)[C@@H](NC(=O)[C@H](Cc1ccc(OC)cc1)C[C@H](O)[C@H](Cc1ccccc1)NC(=O)OC(C)(C)C)C(C)C | RT activity |  | EC50 | MN | MT-2 | <0.03 µM
Cc1c(-c2cccc(SCCN(C)C)c2)ncnc1-c1cccc(SCCN(C)C)c1 | RT activity |  | EC50 | LAV-1 | PBMC | 6 µM
Cc1nc2ccc(Br)cc2c(-c2ccc(Cl)cc2)c1C(CC(C)C)C(=O)O | luciferase / reporter gene |  | EC50 |  | C8166 | <20 µM
COc1cc([C@H](O)[C@H](CO)Oc2ccc(C(=O)CCO)cc2OC)ccc1O | cytopathic effect |  | EC50 |  |  | 1.86 µg/mL
CC1=N/C(=C/c2ccc(N(C)C)cc2)C(=O)N1c1nc(C)cc(=O)[nH]1 | RT activity |  | EC50 |  |  | 65.86 µg/mL
Cc1nc2ccc(Cl)cc2c(-c2ccc(CF)cc2)c1[C@H](OC(C)(C)C)C(=O)O | luciferase / reporter gene |  | EC50 |  | C8166 | <20 µM
CCc1c(Cc2cc(C)cc(C)c2)n(COC/C(=C/Sc2ccccc2)Sc2ccccc2)c(=O)[nH]c1=O | MTT | K103N + Y181C | EC50 | IIIB | MT-4 | 12 µM
Cc1ccc(Nc2c([N+](=O)[O-])ncn2CC2=CC(=O)C(=O)CN2C)cc1 | MTT |  | EC90 | IIIB | MT-4 | >25.4 µM
COc1ccc2[nH]c3ccccc3c(=O)c2c1OC | p24 / ELISA |  | EC50 | IIIB | OM-10.1 | >32 µg/mL
CCc1c(Cc2cc(C)cc(C)c2)n(COCc2cn(-c3cccnc3)nn2)c(=O)[nH]c1=O | MTT | Y181C | EC50 | IIIB | MT-4 | 20 µM
C=CCOC(=O)N[C@@H](Cc1ccccc1)[C@H](O)CN(CC(C)C)S(=O)(=O)c1ccc(NC(C)=O)cc1 | p24 |  | EC50 | IIIB | CEM | <10 µM
O=C(OCc1ccccc1)N(Cc1ccccc1)CC(O)C(Sc1ccccc1)N(Cc1ccccc1)C(=O)OCc1ccccc1 | syncytia |  | EC50 | LAV | MT-4 | 10 µM
COc1ccc(S(=O)(=O)N(CC(C)C)C[C@@H](O)CCN(CC2CCCC2)S(=O)(=O)Cc2cccc3nc(C)oc23)cc1 | p24 |  | EC50 | IIIB | CEM | <1 µM
CCc1c(Cc2cc(C)cc(C)c2)n(COCc2cn(Cc3c(F)cccc3F)nn2)c(=O)[nH]c1=O | MTT | WT | EC50 | IIIB | MT-4 | 0.07 µM
CCOC(=O)N[C@@H](Cc1ccccc1)[C@H](O)CN(CC1CCCC1)S(=O)(=O)c1ccc(F)cc1 | p24 |  | EC50 | IIIB | CEM | <1 µM
O=C(c1ccccc1)N(CCc1ccccc1)C[C@H](O)CN(CC1CCCC1)S(=O)(=O)C1CS(=O)(=O)CC1O | p24 |  | EC90 | IIIB | CEM | 1 µM
CN(C)CCSc1ccc(-c2ccc(-c3ccc(SCCN(C)C)cc3)nn2)cc1 | RT activity |  | EC50 | LAV-1 | PBMC | 5.8 µM
CC1=N/C(=C/c2ccccc2O)C(=O)N1c1nc(C)cc(Cl)n1 | RT activity |  | EC50 |  |  | 65.67 µg/mL
COc1cc(O)c2c(=O)c3ccccc3n(C)c2c1 | p24 / ELISA |  | EC50 | IIIB | OM-10.1 | >0.8 µg/mL
CCOP(=O)(OCC)C(N[C@@H](Cc1ccccc1)[C@@H](O)CN(CC(C)C)S(=O)(=O)c1ccc(OC)cc1)c1ccc2c(c1)OCO2 | MTT |  | EC50 | IIIB | MT-4 | >13.73 µg/mL
CCc1c(Cc2ccccc2C)n(COC/C(Br)=C(\Br)c2ccccc2)c(=O)[nH]c1=O | MTT | K103N + Y181C | EC50 | IIIB | MT-4 | >26 µM
CC(C)CN(C[C@@H](O)[C@H](Cc1ccccc1)NC(=O)O[C@@H]1CCOC1)S(=O)(=O)c1ccc(F)cc1 | p24 |  | EC50 | IIIB | CEM | <1 µM
COCCNC(=O)[C@@H](NC(=O)[C@H](Cc1ccccc1)C[C@H](O)[C@H](Cc1ccccc1)NC(=O)OC(C)(C)C)C(C)C | RT activity |  | EC90 | MN | MT-2 | 0.1 µM
CC(C)CN(C[C@@H](O)[C@H](Cc1ccccc1)NC(=O)O[C@H]1CCOC1)S(=O)(=O)c1cccc2nonc12 | p24 |  | EC50 | IIIB | CEM | <10 µM
CC(C)[C@H](NC(=O)OCc1ccccc1)C(=O)NC(Sc1ccccc1)C(O)C(NC(=O)[C@@H](NC(=O)OCc1ccccc1)C(C)C)Sc1ccccc1 | syncytia |  | EC50 | LAV | MT-4 | 10 µM
O=S(=O)(c1cccc2cnccc12)N1CCNCC1 | p24 / ELISA |  | EC50 | IIIB | U-937 | >10.5 µg/mL
CN1CCn2c3c(c(O)c2C1=O)C(=O)N(Cc1ccc(F)cc1)CC3 | p24 |  | EC95 |  | MT-4 | ≤10 µM
Cc1nc2ccc(Cl)cc2c(-c2cncnc2)c1C(OC(C)C)C(=O)O | luciferase / reporter gene |  | EC50 |  | C8166 | <20 µM
CCc1c(Cc2cc(C)cc(C)c2)n(COCC#Cc2ccc(CO[Si](c3ccccc3)(c3ccccc3)C(C)(C)C)cc2)c(=O)[nH]c1=O | MTT | WT | EC50 | IIIB | MT-4 | 1.4 µM
CC1=N/C(=C/c2ccc3c(c2)CC=N3)C(=O)N1c1nc(C)cc(=O)[nH]1 | RT activity |  | EC50 |  |  | 67.94 µg/mL
CCOP(=O)(OCC)C(N[C@@H](Cc1ccccc1)[C@H](O)CN(CC(C)C)S(=O)(=O)c1ccc(OC)cc1)c1ccccc1 | MTT |  | EC50 | ROD | MT-4 | >13.25 µg/mL
CN1CC(=O)C(=O)C=C1Cn1cnc([N+](=O)[O-])c1Nc1ccc(Cl)cc1 | MTT |  | EC90 | IIIB | MT-4 | >250 µM
Cc1noc(C)c1S(=O)(=O)N(Cc1ccccc1)C[C@@H](O)[C@H](Cc1ccccc1)NC(=O)[C@H](CC(N)=O)NC(=O)c1ccc2ccccc2n1 | p24 |  | EC50 | IIIB | CEM | <10 µM
COc1ccc(Nc2c([N+](=O)[O-])ncn2CC2=CC(=O)C(=O)CN2C)cc1 | MTT |  | EC90 | IIIB | MT-4 | >250 µM
CC(C)[C@H](NC(=O)OC(C)(C)C)C(=O)NCC(O)C(NC(=O)[C@@H](NC(=O)OC(C)(C)C)C(C)C)Sc1ccccc1 | syncytia |  | EC50 | LAV | MT-4 | 0.1 µM
COCCNC(=O)[C@@H](NC(=O)[C@H](Cc1cc(OC)c(OC)c(OC)c1)C[C@H](O)[C@H](Cc1ccccc1)NC(=O)OC(C)(C)C)C(C)C | RT activity |  | EC90 | MN | MT-2 | 0.3 µM

The first 5 rows once more:

structure | read by | changes | read-out | strain or isolate | cells | value
O=C(c1ccccc1)N(CCc1ccccc1)C[C@H](O)CN(CC1CCCC1)S(=O)(=O)c1nccs1 | p24 |  | EC50 | IIIB | CEM | <1 µM
CN1N=C(N)c2cn([C@@H]3O[C@H](COP(=O)(O)O)[C@@H](O)[C@H]3O)c3ncnc1c23 | cytopathic effect / XTT |  | EC50 | RF | CEM + CEM-SS | 0.03 µM
COc1ccc(S(=O)(=O)N(CC(C)C)C[C@@H](O)CCN(CC2CCCC2)S(=O)(=O)c2nc3ccccc3o2)cc1 | p24 |  | EC90 | IIIB | CEM | 1 µM
CC(C)CN(C[C@@H](O)[C@H](Cc1ccccc1)NC(=O)[C@@H](NC(=O)OCc1ccccn1)C(C)C)S(=O)(=O)c1ccc(F)cc1 | p24 |  | EC50 | IIIB | CEM | <1 µM
CC(C)CN(C(=O)C(=O)C(=O)C(Cc1ccccc1)NC(=O)O[C@H]1CCOC1)S(=O)(=O)c1ccccc1 | p24 |  | EC90 | IIIB | CEM | 1 µM

Blank or dashed fields: not listed here. Neighbouring rows are from separate reports.